Results of unrelated studies side by side (data: NIAID ChemDB).

All rows: tests in culture; agent: Candida albicans

A number after MIC or MFC names an inhibition level or a share of isolates.

structure | read by | strain or isolate | measure | conditions | result
CCCCCCCCNC1CCCNC(=O)[C@@H]2C[C@H](N)CN2C(=O)[C@H]([C@@H](C)O)NC(=O)[C@H](CCc2ccc(O)cc2)NC(=O)[C@@H]2C[C@@H](O)CN2C(=O)[C@H]([C@@H](C)O)NC1=O |  | ATCC 38247 | MIC |  | 0.2 µg/mL
C[C@@H](N1CCN(Cc2cn(Cc3ccc(F)cc3)c3ccccc23)CC1)[C@](O)(Cn1cncn1)c1ccc(F)cc1F | resazurin | ATCC 90028 | MIC80 |  | 2 µg/mL
Clc1ccc(COc2ccc(C(c3nccc4ccccc34)n3ccnc3)cc2)cc1.O=[N+]([O-])O |  | 16 strains | MIC90 |  | ≥256 µg/mL
Cc1ccc(-c2c3c(N)c4c(nc3nc3c2c(C)nn3-c2ccccc2)CCCCC4)cc1 | broth dilution / absorbance | CCC 127 | MIC100 |  | 125 µg/mL
C[C@@H](O)[C@@H]1NC(=O)[C@H](CCc2ccc(O)cc2)NC(=O)[C@@H]2C[C@@H](O)CN2C(=O)[C@H]([C@@H](C)O)NC(=O)[C@@H](NC(=O)c2ccccc2)CCCNC(=O)[C@@H]2C[C@H](N)CN2C1=O |  | ATCC 38247 | MIC |  | >100 µg/mL
N=C(N)c1ccc(/C=C/C=C/c2cc3cc(C(=N)N)ccc3o2)cc1 |  |  | MIC |  | 1 µg/mL
Clc1ccc(C(Cn2ccnc2)OCc2ccc(-c3ccccc3)cc2)cc1 |  | CA12 | MIC |  | >128 µg/mL
c1cc(Oc2ccc(-c3cc4ccc(C5=NCCN5)cc4[nH]3)cc2)cc(C2=NCCN2)c1 |  |  | MIC |  | 10 µg/mL
CC[C@@H]([C@H](C)O)n1ncn(-c2ccc(N3CCN(c4ccc(OC[C@@H]5CO[C@@](Cn6cncn6)(c6ccc(F)cc6F)C5)cc4)CC3)cc2)c1=O | broth dilution | 10 isolates | MIC | pH 5 | 0.03 µg/mL
Cc1ccc(C(Cn2ccnc2)OCc2cccc3ccccc23)cc1 |  | CA2 | MIC |  | 128 µg/mL
Clc1ccc(CO/N=C2/c3ccccc3OCC2n2cncn2)cc1Cl |  | ATCC 10231 | MFC |  | >64 µg/mL
Clc1ccc(C(Cn2ccnc2)OC/C=C/c2ccccc2)c(Cl)c1 |  | CA6 | MIC |  | 4 µg/mL
Cc1ccc(-c2c3c(N)c4c(nc3nc3c2c(C)nn3-c2ccccc2)CCC4)cc1 | broth dilution / absorbance | CCC 126 | MIC80 |  | 62.5 µg/mL
Nc1[nH]c(=O)ncc1F |  | ATCC 64548 | MIC |  | 0.12 µg/mL
CC(C)C(=N)CCC[C@H]1CO[C@@](Cn2cccc2)(c2ccc(F)cc2F)C1 |  | B02630 | MIC |  | 100 µg/mL
CC(=O)N1CCN(c2ccc(OC[C@H]3CO[C@](Cn4ccnc4)(c4ccc(Cl)cc4Cl)O3)cc2)CC1 | broth dilution | 10 isolates | MIC | pH 6 | 0.06 µg/mL
CCCCCCCCCCOC[N+](C)(C)Cc1cc(N=Nc2ccc(Cl)cc2)ccc1O |  |  | MBC |  | 1008 µM
CCC(C)n1ncn(-c2ccc(N3CCN(c4ccc(OC[C@H]5CO[C@](Cn6cncn6)(c6ccc(Cl)cc6Cl)O5)cc4)CC3)cc2)c1=O |  | 58 strains | MIC90 |  | 0.25 µg/mL
C(=C\c1ccccc1)/COC(Cn1ccnc1)c1ccccc1 |  | 5M | MIC |  | 128 µg/mL
CCCCCCCCN[C@H]1C[C@H]2C(=O)NCCC[C@H](NC(=O)c3ccc(-c4ccc(-c5ccc(OCCCCC)cc5)cc4)cc3)C(=O)N[C@@H]([C@@H](C)O)C(=O)N3C[C@H](O)C[C@H]3C(=O)N[C@@H](CCc3ccc(O)cc3)C(=O)N[C@@H]([C@@H](C)O)C(=O)N2C1 |  | ATCC 62376 | MIC |  | 6.25 µg/mL
C[C@@H](N1CCN(Cc2cn(Cc3ccc(F)cc3F)c3c(C#N)cccc23)CC1)[C@](O)(Cn1cncn1)c1ccc(F)cc1F | resazurin | ATCC 64548 | MIC80 |  | 1 µg/mL
Cc1c(Cl)[n+](=O)c2cc(Cl)ccc2n1[O-] |  | Clinical isolate 22 | MIC |  | 7.8 µg/mL
CCCCCCCCCCCCCCC(=O)N[C@H]1CCCNC(=O)[C@@H]2C[C@H](N)CN2C(=O)[C@H]([C@@H](C)O)NC(=O)[C@H](CCc2ccc(O)cc2)NC(=O)[C@@H]2C[C@@H](O)CN2C(=O)[C@H]([C@@H](C)O)NC1=O |  | ATCC 62376 | MIC |  | 0.78 µg/mL
CCOC[N+](C)(C)Cc1cc(N=Nc2ccc(Cl)cc2)ccc1O |  |  | MIC |  | 325 µM
c1ccc(C(Cn2ccnc2)OCc2cccc3ccccc23)cc1 |  | 3M | MIC |  | 128 µg/mL
CCC(C)CC(C)CCCCCCCCC(=O)N[C@H]1C[C@@H](O)[C@H](NCCN)NC(=O)[C@@H]2[C@@H](O)CCN2C(=O)[C@H]([C@H](O)CCN)NC(=O)[C@H]([C@H](O)[C@@H](O)c2ccc(O)cc2)NC(=O)[C@@H]2C[C@@H](O)CN2C(=O)[C@H]([C@@H](C)O)NC1=O | broth dilution | 15 isolates | MIC | pH 6 | 0.06 µg/mL
C=CCc1ccc(Cn2cc(CN3CCN([C@H](C)[C@](O)(Cn4cncn4)c4ccc(F)cc4F)CC3)c3cccc(F)c32)cc1 | resazurin | ATCC 36082 | MIC80 |  | 4 µg/mL
CC(C)(O)c1cn(-c2ccc(Cl)cc2)nn1 | broth dilution | URM 4986 | MIC |  | 128 µg/mL
Clc1ccc(C(Cn2ccnc2)OCc2ccc(-c3ccccc3)cc2)c(Cl)c1 |  | CA2 | MIC |  | 128 µg/mL
CCCCCCCCOc1ccc(C(=O)NC2C[C@@H](O)[C@@H](O)NC(=O)C3[C@@H](O)[C@@H](C)CN3C(=O)C(C(C)O)NC(=O)C([C@H](O)[C@@H](O)c3ccc(O)cc3)NC(=O)C3C[C@@H](O)CN3C(=O)C(C(C)O)NC2=O)cc1 |  | MY1750 | MIC |  | 1 µg/mL
Fc1cccc(CO/N=C2\c3ccccc3OCC2n2cncn2)c1 |  | ATCC 10231 | MFC |  | >64 µg/mL
CCC(C)n1ncn(-c2ccc(N3CCN(c4ccc(OC[C@H]5CO[C@](Cn6cncn6)(c6ccc(Cl)cc6Cl)O5)cc4)CC3)cc2)c1=O |  | TIMM1768 (azole-susceptible) | MIC90 |  | 0.0063 µg/mL
C/C(=C\c1cc2cc(C(=N)N)ccc2o1)c1ccc(C(=N)N)cc1 |  |  | MIC |  | 60 µg/mL
CCCCCOc1ccc(-c2cc(-c3ccc(C(=O)N[C@H]4C[C@@H](O)[C@@H](O)NC(=O)[C@@H]5[C@@H](O)[C@@H](C)CN5C(=O)[C@H]([C@H](O)CC(N)=O)NC(=O)[C@H]([C@H](O)[C@@H](O)c5ccc(O)c(OS(=O)(=O)O)c5)NC(=O)[C@@H]5C[C@@H](O)CN5C(=O)[C@H]([C@@H](C)O)NC4=O)cc3)no2)cc1 |  | 12 isolates | MFC90 |  | 0.25 µg/mL
CN(CCCC#CC(C)(C)C)c1cccc2c1CCC(=O)N2 |  | Clinical isolate 2 | MIC |  | 15.6 µg/mL
C[C@@H](N1CCN(Cc2cn(-c3ccc(F)cc3)c3cc(Cl)ccc23)CC1)[C@](O)(Cn1cncn1)c1ccc(F)cc1F | resazurin | ATCC 90028 | MIC80 |  | 0.125 µg/mL
CC(C)C(=N)CCC[C@H]1CO[C@@](Cn2cncn2)(c2ccc(F)cc2F)C1 |  | CI-2 | MIC |  | >100 µg/mL
Fc1ccccc1COc1ccc(C(c2cccc3ccccc23)n2ccnc2)cc1.O=[N+]([O-])O |  | 16 strains | Mean MIC |  | ≥256 µg/mL
Cc1ccc(-c2c3c(N)c4c(nc3nc3c2c(C)nn3-c2ccccc2)CCCC4)cc1 | broth dilution / absorbance | CCC 125 | MIC100 |  | 31.2 µg/mL
Clc1ccc(CO/N=C2\c3ccccc3OCC2n2cncn2)c(Cl)c1 |  | ATCC 10231 | MFC |  | >64 µg/mL
Clc1ccc(C(Cn2ccnc2)OCc2cccc3ccccc23)c(Cl)c1 |  | CA2 | MIC |  | 2 µg/mL
C[N+](C)(COC1CCCCCCC1)Cc1cc(N=Nc2ccc(Cl)cc2)ccc1O |  |  | MBC |  | 536 µM
C[C@H]1[C@H](O)[C@@H](C)/C=C/C=C/C=C/C=C/C=C/C=C/C=C/[C@H](O[C@@H]2O[C@H](C)[C@@H](O)[C@H](N)[C@@H]2O)C[C@@H]2O[C@](O)(C[C@@H](O)C[C@@H](O)CC[C@H](O)[C@@H](O)C[C@@H](O)CC(=O)O[C@H]1C)C[C@H](O)[C@H]2C(=O)O |  | A25941 (amphotericin B-resistant) | MIC |  | 2 µg/mL
Nc1[nH]c(=O)ncc1F | broth dilution | 15 isolates | MIC | pH 6 | 0.125 µg/mL
C[C@@H](c1ncncc1F)[C@](O)(Cn1cncn1)c1ccc(F)cc1F |  | Isolate 5810 | MIC |  | 0.03 µg/mL
N=C(N)c1cccc(-c2cc3cc(C(=N)N)ccc3s2)c1 |  |  | MIC |  | >60 µg/mL
COc1ccc(-c2c3c(N)c4c(nc3nc3c2c(C)nn3-c2ccccc2)CCC4)cc1 | broth dilution / absorbance | ATCC 10231 | MIC100 |  | 250 µg/mL
C[C@@H](N1CCN(Cc2cn(Cc3ccc(F)cc3F)c3ccc(C#N)cc23)CC1)[C@](O)(Cn1cncn1)c1ccc(F)cc1F | resazurin | ATCC 64548 | MIC80 |  | 0.125 µg/mL
C=CCc1ccc(OC)c(OC)c1 | turbidity | 3178 | MIC90 |  | 350 µg/mL
Fc1ccc(CO/N=C2\c3ccccc3OCC2n2cncn2)cc1 |  | ATCC 10231 | MIC |  | 64 µg/mL
CC(C)C(=N)CCC=C1CO[C@@](Cn2cncn2)(c2ccc(F)cc2F)C1 |  | A.10231 | MIC |  | >100 µg/mL
CCCCCCOC[N+](C)(C)Cc1cc(N=Nc2ccc(C)cc2)ccc1O |  |  | MIC |  | 38 µM
c1ccc(C(c2nccc3ccccc23)n2ccnc2)cc1 |  | 44 strains | Mean MIC |  | 76 µg/mL
CCCCCOc1ccc(-c2ccc(-c3ccc(C(=O)N[C@H]4CCCNC(=O)[C@@H]5C[C@H](NC(C)=O)CN5C(=O)[C@H]([C@@H](C)O)NC(=O)[C@H](CCc5ccc(O)cc5)NC(=O)[C@@H]5C[C@@H](O)CN5C(=O)[C@H]([C@@H](C)O)NC4=O)cc3)cc2)cc1 |  | ATCC 38247 | MIC |  | 0.39 µg/mL
CCCCCCCCCCCCCCCCCC(=O)NC1CC(O)C(O)NC(=O)C2C(O)C(C)CN2C(=O)C(C(C)O)NC(=O)C(C(O)C(O)c2ccc(O)cc2)NC(=O)C2CC(O)CN2C(=O)C(C(C)O)NC1=O |  | MY1055 | MIC |  | 0.5 µg/mL
Clc1ccc(COc2ccc(C(c3ccc4ccccc4c3)n3ccnc3)cc2)c(Cl)c1 |  | 17 strains | Mean MIC |  | ≥256 µg/mL
O[C@](Cn1cncn1)(Cn1cnc(/C=C/c2ccc(OCC(F)(F)C(F)F)cc2)n1)c1ccc(F)cc1F |  | Isolate 08-31 | MIC |  | 1 µg/mL
Cc1c(S(=O)(=O)c2ccccc2)[n+](=O)c2cc(Cl)ccc2n1[O-] |  | Clinical isolate 16 | MIC |  | 62.5 µg/mL
Clc1ccc(COc2ccc(C(c3ccc(-c4ccccc4)cc3)n3ccnc3)cc2)c(Cl)c1.O=[N+]([O-])O |  | 16 strains | Mean MIC |  | ≥256 µg/mL
Cc1c(O)cccc1C(=O)N[C@@H](CSc1ccccc1)[C@H](O)CN1C[C@H]2CCCC[C@H]2C[C@H]1C(=O)NC(C)(C)C |  | I112A | MIC |  | >64 µg/mL
CC(C)C(=N)CCC=C1CO[C@@](Cn2ccnc2)(c2ccc(F)cc2F)C1 |  | IFO. 1385 | MIC |  | 1.56 µg/mL
Clc1ccc(C(Cn2ccnc2)OC/C=C/c2ccccc2)cc1 |  | 3M | MIC |  | 128 µg/mL
CCOc1cc2c(cc1F)n([O-])c(C)c(S(=O)(=O)c1ccccc1)[n+]2=O |  | Clinical isolate 22 | MIC |  | 15.6 µg/mL
CC(C)C(=O)CCC[C@@H]1CO[C@@](Cn2ccnc2)(c2ccc(F)cc2F)C1 |  | A.10231 | MIC |  | 25 µg/mL
C[C@@H](O)[C@@H]1NC(=O)[C@H](CCc2ccc(O)cc2)NC(=O)[C@@H]2C[C@@H](O)CN2C(=O)[C@H]([C@@H](C)O)NC(=O)[C@@H](NC(=O)c2ccc(N3CCN(c4ccc(O)cc4)CC3)cc2)CCCNC(=O)[C@@H]2C[C@H](N)CN2C1=O |  | ATCC 38247 | MIC |  | 50 µg/mL

The first 5 rows once more:

CCCCCCCCNC1CCCNC(=O)[C@@H]2C[C@H](N)CN2C(=O)[C@H]([C@@H](C)O)NC(=O)[C@H](CCc2ccc(O)cc2)NC(=O)[C@@H]2C[C@@H](O)CN2C(=O)[C@H]([C@@H](C)O)NC1=O ; strain or isolate: ATCC 38247 ; measure: MIC ; result: 0.2 µg/mL
C[C@@H](N1CCN(Cc2cn(Cc3ccc(F)cc3)c3ccccc23)CC1)[C@](O)(Cn1cncn1)c1ccc(F)cc1F ; read by: resazurin ; strain or isolate: ATCC 90028 ; measure: MIC80 ; result: 2 µg/mL
Clc1ccc(COc2ccc(C(c3nccc4ccccc34)n3ccnc3)cc2)cc1.O=[N+]([O-])O ; strain or isolate: 16 strains ; measure: MIC90 ; result: ≥256 µg/mL
Cc1ccc(-c2c3c(N)c4c(nc3nc3c2c(C)nn3-c2ccccc2)CCCCC4)cc1 ; read by: broth dilution / absorbance ; strain or isolate: CCC 127 ; measure: MIC100 ; result: 125 µg/mL
C[C@@H](O)[C@@H]1NC(=O)[C@H](CCc2ccc(O)cc2)NC(=O)[C@@H]2C[C@@H](O)CN2C(=O)[C@H]([C@@H](C)O)NC(=O)[C@@H](NC(=O)c2ccccc2)CCCNC(=O)[C@@H]2C[C@H](N)CN2C1=O ; strain or isolate: ATCC 38247 ; measure: MIC ; result: >100 µg/mL

Blank or dashed fields: not listed here. Lines come from different laboratories, so protocols vary.